Measurements published in paper PMC5053896 (Journal of the American Chemical Society, 2016).

Protein sequences, listed by entry. Tags and fused reporters are not part of them. Lines headed by an entry give the natural chain unless they say otherwise; changes in a name come on top.
UniProt P9WMW5: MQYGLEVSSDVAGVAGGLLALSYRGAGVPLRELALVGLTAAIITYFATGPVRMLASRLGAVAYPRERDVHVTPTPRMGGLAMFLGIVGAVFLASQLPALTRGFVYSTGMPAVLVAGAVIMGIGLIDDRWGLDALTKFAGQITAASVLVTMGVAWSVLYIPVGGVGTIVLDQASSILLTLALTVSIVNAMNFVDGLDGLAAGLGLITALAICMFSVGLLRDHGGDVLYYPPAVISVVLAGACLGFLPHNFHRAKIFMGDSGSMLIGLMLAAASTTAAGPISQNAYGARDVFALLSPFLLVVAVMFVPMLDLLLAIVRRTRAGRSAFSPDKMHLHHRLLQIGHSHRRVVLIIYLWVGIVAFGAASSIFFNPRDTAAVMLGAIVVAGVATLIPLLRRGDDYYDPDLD
UniProt P9WMW7: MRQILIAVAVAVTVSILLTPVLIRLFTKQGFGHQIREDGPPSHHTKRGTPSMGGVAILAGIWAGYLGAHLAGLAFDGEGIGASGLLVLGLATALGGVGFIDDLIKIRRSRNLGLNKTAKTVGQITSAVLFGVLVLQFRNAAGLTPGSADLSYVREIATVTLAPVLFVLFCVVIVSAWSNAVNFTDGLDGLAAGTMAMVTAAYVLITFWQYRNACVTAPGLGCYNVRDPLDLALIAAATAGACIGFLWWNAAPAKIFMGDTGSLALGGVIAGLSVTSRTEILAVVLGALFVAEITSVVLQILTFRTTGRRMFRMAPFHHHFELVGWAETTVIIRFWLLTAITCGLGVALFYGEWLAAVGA

Experiments:
[1] = molecular target: WecA (polyprenyl phosphate-GlcNAc-1-phosphate transferase) (Mycobacterium tuberculosis, UniProt P9WMW5); format: biochemical, M. tuberculosis; conditions: read-out: WecA inhibition IC50
MurX = MurX (Mycobacterium tuberculosis, UniProt P9WMW7); format: biochemical, M. tuberculosis; conditions: read-out: MurX inhibition IC50

Muraymycin D1-amide [Muraymycin D1-amide (2)]
IC50 [1]: 660 nM
IC50 (MurX): 11 nM

Muraymycin D1-diamide [Muraymycin D1-diamide (3)]
IC50 [1]: 70 nM
IC50 (MurX): 9.6 nM
